Anti-infective test results gathered from many reports (values: NIAID ChemDB through PubChem).

All rows: whole-cell or culture tests; agent: Mycobacterium avium; measure: MIC

Neighbouring rows are from separate reports. Blank or dashed fields: not listed here.

smiles	setting	strain or isolate	value
O=c1oc2ccccc2c(=O)n1-c1ccccc1	-	CNCTC MY330/88	125 µM
CCCCCCCCCOc1cccc(NC(=O)OCCN2CCOCC2)c1	-	MY330/88	62.5 µM
Cc1ccc2oc(=S)n(-c3ccc(C(F)(F)F)cc3)c(=S)c2c1	14 d	MY330/88	32 µM
CN(C)c1ccc(-n2c(=O)oc3ccc(Cl)cc3c2=O)cc1	-	CNCTC MY330/88	62 µM
O=c1oc2ccc(Br)cc2c(=S)n1-c1ccc(Cl)c(Cl)c1	21 d	MY330/88	62.5 µM
Clc1ccc2c(c1)nc1cc(Nc3ccccc3)c(=NC3CCCCC3)cc-1n2-c1ccccc1	-	34540	2 µg/mL
Fc1ccc(-n2c(=S)oc3ccc(Br)cc3c2=S)cc1	21 d	MY330/88	16 µM
CCCCCCOc1ccc(NC(=O)OCC[NH+]2CCCC2)cc1	-	MY330/88	32 µM
FC(F)(F)c1ccc(-n2c(=S)oc3ccc(Br)cc3c2=S)cc1	14 d	MY330/88	62.5 µM
COc1ccc2c(=O)n(-c3cccc(F)c3)c(=O)oc2c1	-	CNCTC MY330/88	62.5 µM
CCCOc1ccccc1NC(=O)OCCN(C)C	-	MY330/88	500 µM
Fc1cccc(-n2c(=S)oc3ccc(F)cc3c2=S)c1	14 d	MY330/88	16 µM
O=c1oc2cc(Cl)ccc2c(=O)n1-c1ccc(C(F)(F)F)cc1	-	CNCTC MY330/88	8 µM
COc1ccc(NC(=O)OCCN(C)C)cc1	-	MY330/88	>1000 µM
O=c1oc2cc(Cl)ccc2c(=O)n1-c1cccc(Cl)c1	-	CNCTC MY330/88	8 µM
CCCCCCCCCOc1ccc(NC(=O)OCCN2CCOCC2)cc1	-	MY330/88	16 µM